Measured values from several laboratories, pooled; numbers as filed in NIAID ChemDB.

Shared fields: tests in culture; organism: Varicella zoster virus; measure: EC50

ECn: concentration that inhibits the pathogen or its effect by n%.

smiles	cells	read by	strain or isolate	value
O=c1ccn([C@@H]2O[C@H](/C=C/C=C(Br)Br)[C@@H](O)[C@H]2O)c(=O)[nH]1	HEL		YS	>120 µM
CCCCCCCCc1cc2cn([C@H]3C[C@H](O)[C@@H](CO)O3)c(=O)nc2o1			OKA	0.008 µM
O=c1[nH]c(=O)n([C@H]2C[C@H](O)[C@@H](CO)O2)cc1I	HEL	cytopathic effect / ELISA	9/84	9.3 µM
Cc1cccn2c(C3SCCS3)cnc12	HEL		Strain 07/1	>1000 µM
Cn1cc(C(=O)NCc2ccc(Cl)cc2)c(=O)c2cc(CN3CCOCC3)ccc21	HFF	plaque count	SM varicella isolate	0.4 µM
Nc1nc2c(ncn2CCC(CO)CO)c(=O)[nH]1	HEL	cytopathic effect	Clinical isolate VZV-25	3.54 µM
Nc1nc2c(ncn2C[C@H](CO)CCO)c(=O)[nH]1	HEL	cytopathic effect / ELISA	9/84-C	>100 µM
Nc1ncnc2c1ncn2[C@@H]1C[C@H](CO)[C@@H](O)[C@@H]1O	HEL	plaque count	YS-W3 G19 H3	0.8 µg/mL
O=C(O)P(=O)(O)O	HEL	cytopathic effect	Clinical isolate VZV-22	76.9 µM
Cc1ccn2c(C3SCCS3)cnc2c1	HEL		Strain 07/1	>1000 µM
Nc1ncnc2c1ncn2[C@@H]1C[C@H](CO)[C@@H](O)[C@@H]1O	HEL	cytopathic effect / ELISA	9/84-A	35 µM
CC(NC(=S)Nc1ccc(NC(=O)c2ccccc2F)cc1C#N)c1ccc(F)cc1	HFF	ELISA	ELLEN	0.05 µg/mL
O=c1[nH]c(=O)n([C@@H]2O[C@H](CO)[C@@H](O)[C@@H]2O)cc1/C=C/Br	HEL	cytopathic effect	Oka CF1742-resistant	>57 µM
O=c1[nH]c(=O)n([C@H]2C[C@H](O)[C@@H](CO)O2)cc1/C=C/Br	HEL	cytopathic effect / ELISA	9/84-A	>100 µM
Nc1ncnc2c1ncn2C[C@@H](CO)OCP(=O)(O)O	HEL	cytopathic effect	Oka PFA-resistant/A	0.148 µM
O=C(O)P(=O)(O)O	HEL	cytopathic effect / ELISA	9/84-C	141 µM
O=c1[nH]c(=O)n([C@H]2C[C@H](O)[C@@H](CO)O2)cc1I	HEL	plaque count	7	0.39 µg/mL
Cc1ccn2c(C3OCCS3)cnc2c1	HEL		YS/R	>1000 µM
O=C(NCc1ccc(Cl)cc1)c1c[nH]c2ccc(C#CCO)cc2c1=O		plaque count	GEI	0.2 µM
Nc1nc2c(ncn2COC(CO)CO)c(=O)[nH]1	HEL	cytopathic effect / ELISA	9/84-A	43 µM

2 of the rows above, restated:

smiles | cells | read by | strain or isolate | value
Cc1cccn2c(C3SCCS3)cnc12 | HEL |  | Strain 07/1 | >1000 µM
Cn1cc(C(=O)NCc2ccc(Cl)cc2)c(=O)c2cc(CN3CCOCC3)ccc21 | HFF | plaque count | SM varicella isolate | 0.4 µM

Rows are shuffled and stem from different studies. An empty or dashed field is not shown.